Anti-infective test results gathered from many reports (values: NIAID ChemDB through PubChem).

All rows: growth or infection tests; agent: Mycobacterium avium; read-out: MIC

Conditions beyond the fields shown may differ between rows. Blank or dashed fields: not listed here.

smiles,conditions,strain,result
O=c1oc2ccc(Br)cc2c(=S)n1-c1ccc(C(F)(F)F)cc1,14 d,MY330/88,32 µM
Clc1ccc2c(c1)nc1cc(Nc3ccccc3)c(=NC3CCCCC3)cc-1n2-c1ccccc1,-,6194,2 µg/mL
CCCCOc1ccc(NC(=O)OCC[NH+]2CCCC2)cc1,-,MY330/88,125 µM
O=c1oc2ccc(F)cc2c(=O)n1-c1cccc(Cl)c1,-,CNCTC MY330/88,31 µM
Fc1cccc(-n2c(=S)oc3ccc(Cl)cc3c2=S)c1,14 d,MY330/88,62.5 µM
COc1ccc2oc(=O)n(-c3ccc(C)cc3)c(=O)c2c1,-,CNCTC MY330/88,62.5 µM
Cc1ccc2oc(=S)n(-c3cccc(Cl)c3)c(=S)c2c1,21 d,MY330/88,4 µM
O=c1oc2ccc(Br)cc2c(=O)n1-c1ccc(Cl)c(Cl)c1,-,CNCTC MY330/88,16 µM
S=c1oc2ccc(Br)cc2c(=S)n1-c1ccccc1,21 d,MY330/88,16 µM
CCOC(=O)c1ccc(-n2c(=O)oc3ccc(Cl)cc3c2=O)cc1,-,CNCTC MY330/88,32 µM
CCCCCCOc1ccc(NC(=O)OCCN2CCOCC2)cc1,-,MY330/88,16 µM
CC[C@H]1OC(=O)[C@H](C)C(=O)[C@H](C)[C@@H](O[C@@H]2O[C@H](C)C[C@H](N(C)C)[C@H]2O)[C@](C)(OC)C[C@@H](C)C(=O)[C@H](C)[C@H]2N(CCCCn3cnc(-c4cccnc4)c3)C(=O)O[C@]12C,-,Isolate 969,10 µg/mL
CCCCCCCOc1ccccc1NC(=O)OCCN1CCCCCC1,-,MY330/88,16 µM
COc1ccc2c(=O)n(-c3ccc(F)cc3)c(=O)oc2c1,-,CNCTC MY330/88,62.5 µM
CCCCOc1cccc(NC(=O)OCC[NH+]2CCCC2)c1,-,MY330/88,125 µM
COc1ccc2oc(=S)n(-c3ccc(C(F)(F)F)cc3)c(=S)c2c1,14 d,MY330/88,62.5 µM
CN(C)c1ccc(-n2c(=O)oc3cc(Cl)ccc3c2=O)cc1,-,CNCTC MY330/88,31 µM
CCCCCCOc1ccc(NC(=O)OCCN(C)C)cc1,-,MY330/88,8 µM

For reference, 2 entries again:

smiles | conditions | strain | result
Cc1ccc2oc(=S)n(-c3cccc(Cl)c3)c(=S)c2c1 | 21 d | MY330/88 | 4 µM
CCCCCCOc1ccc(NC(=O)OCCN(C)C)cc1 | - | MY330/88 | 8 µM